Biological target: delta toxin (Staphylococcus aureus, UniProt P0C1V1, L12A/V20A)
Experiment: Neutralization assay of delta toxin hemolysis with human serum pool
Conditions: 5% horse RBC, FIG. 3

CC[C@H](C)[C@H](NC(=O)[C@H](Cc1c[nH]c2ccccc12)NC(=O)[C@H](CCCCN)NC(=O)[C@@H](NC(=O)[C@H](C)NC(=O)[C@H](CC(=O)O)NC(=O)CNC(=O)[C@@H](NC(=O)[C@@H](NC(=O)[C@H](CO)NC(=O)[C@@H](NC(=O)[C@@H](NC(=O)[C@H](CC(=O)O)NC(=O)[C@H](CCC(N)=O)NC(=O)[C@H](C)NC(=O)[C@@H](N)CCSC)[C@@H](C)CC)[C@@H](C)CC)[C@@H](C)O)[C@@H](C)CC)C(C)C)C(=O)N[C@H](C(=O)N[C@@H](CC(=O)O)C(=O)N[C@H](C(=O)N[C@@H](C)C(=O)N[C@@H](CC(N)=O)C(=O)N[C@@H](CCCCN)C(=O)N[C@@H](Cc1ccccc1)C(=O)N[C@H](C(=O)N[C@@H](CCCCN)C(=O)N[C@@H](CCCCN)C(=O)O)[C@@H](C)O)[C@@H](C)O)[C@@H](C)CC
lysis of the cells by the mutant alone (listed as DT-ala2): highly attenuated | lysis of the cells by the mutant alone (listed as Delta toxin-ala2): neither induced significant lysis of the cells
